The target of test [1] is T1, human wild type p53 (human, UniProt P04637 1-393).
T1 construct: whole, on cells; also called untagged p53; Intercoil-free p53
Nature of the test: co-expression in Cos-7 cells, immunofluorescence (nuclear inclusions).

In test [2] the target is T1, human wild type p53. Nature of the test: co-expression in Cos-7 cells, immunofluorescence.
A further test has as its target GFP/muNS (605-635) (Aequorea victoria; avian Orthoreovirus …, UniProt P42212 1-238 = GFP). The experiment in a line: co-expression with muNS-Mi in CEF cells, GFP fluorescence microscopy.

B1: VP16-muNS (other)
chain: MASTKWGDKPMSVSMSHDGSSIRSAASQFLSGPLFHSTPIPPQRKTVLLKFMIGDELVTVQGALAPFDEYWYDNQPLLAQAVEMLASADRLRQFEHYEKFLLKKGHQITEIMNRLRLFFTDVLKVKMEADALPALAQYLMVGTLEAVSTADSPDACVPVTSKILAKQQTIAKSPGRLDEEEYNVIRSRFLTHEVFDLTSDLPGVQPFMDMYYATVPRADSTGWCVYRRKGLLIHAPDEQFSDLTIFSTRLTASRELQLVAGDVAVACFDLMDVSDIAPSHHASVQEERTLGTSRYSNVTANDHPLVFFSPSALRWAIDHACTDSLVSTRNIRVCVGIDPLVTRWTRDGVQEAAILMDDKLPSAGRARMALRTLLLARRSPMTSFLLGALKQSGGQLMEHYRCDAANRYGSPTVPVSHSPPCSKCPELKEQITKLSSSPLPKIDSNVGPAALLSKIADLQRANRELSLKLVDVQPAREDHLLAYLNEHVCVNAKDHEKGLLSRCNVSGDSISSILGQRVKNRERFETRLRHEASAEWEPRVEALNQELAKARVEQQDMMTQSLQYLNERDELLHEVDELKRELTTLRSANVRLNADNHRMSRATRVGDAFVSDVEPLPSGIPGESKPSMEELVDDL
notes: not shown: limits and or
In the case of B1, the binding result in the test with human wild type p53 [1] was “no binding”.

B2: muNS-Mi, region 448-635 of avian reovirus S1133 muNS protein (other)
chain: PAALLSKIADLQRANRELSLKLVDVQPAREDHLLAYLNEHVCVNAKDHEKGLLARCNVSGDSISSILGQRMKNRERFETRLRHEASAEWEPRVEALNQELAKARVEQQDMMTQSLQYLNERDELLQEVDELKRELTTLRSANVRLNADNHRMSRATRVGDAFVSDVEPLPSGIPGESKPSMEELVDDL
For B2, the binding result with human wild type p53 [2] and with GFP/muNS (605-635) was “no binding” each time.

Source of the values: patent US20120301493A1 (UNIVERSIDADE DE SANTIAGO DE COMPOSTELA, published 2012).
